Data published in patent US20250115620A1, “BRIDGED TRICYCLIC CARBAMOYLPYRIDONE COMPOUNDS AND USES THEREOF” (Gilead Sciences, Inc., priority 2022, published 2025).

Test system: pLAI reporter virus
Format: cell-based, HIV
Settings: EC50 (50% HS)/EC50 (CCM)

SMILES	RLUC 50% HS Shift [×]
C[C@H]1CC[C@]2(CC(CO)=NO2)[C@H]2CN1C(=O)c1c(O)c(=O)c(C(=O)NCc3ccc(F)cc3F)cn12 [Example 16, (3′S,5S,7′R)—N-(2,4-difluorobenzyl)-12′-hydroxy-3-(hydroxymethyl)-3′-methyl-1′,11′-dioxo-1′,4′,5′,11′-tetrahydro-3′H,4H,7′H-spiro[isoxazole-5,6′-[2,7]methanopyrido[1,2-a][1,4]diazonine]-10′-carboxamide]	19
C[C@H]1CC[C@]2(CC(CF)=NO2)[C@H]2CN1C(=O)c1c(O)c(=O)c(C(=O)NCc3ccc(F)cc3F)cn12 [Example 17, (3′S,5S,7′R)—N-(2,4-difluorobenzyl)-3-(fluoromethyl)-12′-hydroxy-3′-methyl-1′,11′-dioxo-1′,4′,5′,11′-tetrahydro-3′H,4H,7′H-spiro[isoxazole-5,6′-[2,7]methanopyrido[1,2-a][1,4]diazonine]-10′-carboxamide]	1128
C[C@H]1CC[C@@]2(CC(CF)=NO2)[C@H]2CN1C(=O)c1c(O)c(=O)c(C(=O)NCc3ccc(F)cc3F)cn12 [Example 18, (3′S,5R,7′R)—N-(2,4-difluorobenzyl)-3-(fluoromethyl)-12′-hydroxy-3′-methyl-1′,11′-dioxo-1′,4′,5′,11′-tetrahydro-3′H,4H,7′H-spiro[isoxazole-5,6′-[2,7]methanopyrido[1,2-a][1,4]diazonine]-10′-carboxamide]	2
C[C@H]1CC[C@]2(CC(CF)=NO2)[C@H]2CN1C(=O)c1c(O)c(=O)c(C(=O)NCc3c(F)cc(F)cc3F)cn12 [Example 19, (3′S,5S,7′R)-3-(fluoromethyl)-12′-hydroxy-3′-methyl-1′,11′-dioxo-N-(2,4,6-trifluorobenzyl)-1′,4′,5′,11′-tetrahydro-3′H,4H,7′H-spiro[isoxazole-5,6′-[2,7]methanopyrido[1,2-a][1,4]diazonine]-10′-carboxamide]	813
C[C@H]1CC[C@]2(CC(C(F)F)=NO2)[C@H]2CN1C(=O)c1c(O)c(=O)c(C(=O)NCc3c(F)cc(F)cc3F)cn12 [Example 20, (3′S,5S,7′R)-3-(difluoromethyl)-12′-hydroxy-3′-methyl-1′,11′-dioxo-N-(2,4,6-trifluorobenzyl)-1′,4′,5′,11′-tetrahydro-3′H,4H,7′H-spiro[isoxazole-5,6′-[2,7]methanopyrido[1,2-a][1,4]diazonine]-10′-carboxamide]	561
C[C@H]1CC[C@]2(CC(C(F)F)=NO2)[C@H]2CN1C(=O)c1c(O)c(=O)c(C(=O)NCc3ccc(F)cc3F)cn12 [Example 21, (3′S,5S,7′R)—N-(2,4-difluorobenzyl)-3-(difluoromethyl)-12′-hydroxy-3′-methyl-1′,11′-dioxo-1′,4′,5′,11′-tetrahydro-3′H,4H,7′H-spiro[isoxazole-5,6′-[2,7]methanopyrido[1,2-a][1,4]diazonine]-10′-carboxamide]	242
CC1=NO[C@]2(CC[C@H](C)N3C[C@H]2n2cc(C(=O)NCc4ccc(F)cc4F)c(=O)c(O)c2C3=O)C1C (stereo partly drawn) [Example 23, (3′S,5R,7′R)—N-(2,4-difluorobenzyl)-12′-hydroxy-3,3′,4-trimethyl-1′,11′-dioxo-1′,4′,5′,11′-tetrahydro-3′H,4H,7′H-spiro[isoxazole-5,6′-[2,7]methanopyrido[1,2-a][1,4]diazonine]-10′-carboxamide]	2
CC1=NO[C@]2(CC[C@H](C)N3C[C@H]2n2cc(C(=O)NCc4ccc(F)cc4F)c(=O)c(O)c2C3=O)C1O (stereo partly drawn) [Example 24, (3′S,5S,7′R)—N-(2,4-difluorobenzyl)-4,12′-dihydroxy-3,3′-dimethyl-1′,11′-dioxo-1′,4′,5′,11′-tetrahydro-3′H,4H,7′H-spiro[isoxazole-5,6′-[2,7]methanopyrido[1,2-a][1,4]diazonine]-10′-carboxamide]	2
CC1=NO[C@]2(CC[C@H](C)N3C[C@H]2n2cc(C(=O)NCc4ccc(F)cc4F)c(=O)c(O)c2C3=O)C1=O [Example 25, (3′S,5S,7′R)—N-(2,4-difluorobenzyl)-12′-hydroxy-3,3′-dimethyl-1′,4,11′-trioxo-1′,4′,5′,11′-tetrahydro-3′H,4H,7′H-spiro[isoxazole-5,6′-[2,7]methanopyrido[1,2-a][1,4]diazonine]-10′-carboxamide]	2
CC1=NO[C@@]2(CC[C@H](C)N3C[C@H]2n2cc(C(=O)NCc4ccc(F)cc4F)c(=O)c(O)c2C3=O)[C@H]1C [Example 26, (3′S,4S,5S,7′R)—N-(2,4-difluorobenzyl)-12′-hydroxy-3,3′,4-trimethyl-1′,11′-dioxo-1′,4′,5′,11′-tetrahydro-3′H,4H,7′H-spiro[isoxazole-5,6′-[2,7]methanopyrido[1,2-a][1,4]diazonine]-10′-carboxamide]	32
CC1=NO[C@@]2(CC[C@H](C)N3C[C@H]2n2cc(C(=O)NCc4ccc(F)cc4F)c(=O)c(O)c2C3=O)[C@H]1O [Example 28, (3′S,4S,5R,7′R)—N-(2,4-difluorobenzyl)-4,12′-dihydroxy-3,3′-dimethyl-1′,11′-dioxo-1′,4′,5′,11′-tetrahydro-3′H,4H,7′H-spiro[isoxazole-5,6′-[2,7]methanopyrido[1,2-a][1,4]diazonine]-10′-carboxamide]	129
CC1=NO[C@@]2(CC[C@H](C)N3C[C@H]2n2cc(C(=O)NCc4ccc(F)cc4F)c(=O)c(O)c2C3=O)C1=O [Example 29, (3′S,5R,7′R)—N-(2,4-difluorobenzyl)-12′-hydroxy-3,3′-dimethyl-1′,4,11′-trioxo-1′,4′,5′,11′-tetrahydro-3′H,4H,7′H-spiro[isoxazole-5,6′-[2,7]methanopyrido[1,2-a][1,4]diazonine]-10′-carboxamide]	210
CC1=NO[C@@]2(CC[C@H](C)N3C[C@H]2n2cc(C(=O)NCc4ccc(F)cc4F)c(=O)c(O)c2C3=O)[C@@H]1O [Example 30, (3′S,4R,5R,7′R)—N-(2,4-difluorobenzyl)-4,12′-dihydroxy-3,3′-dimethyl-1′,11′-dioxo-1′,4′,5′,11′-tetrahydro-3′H,4H,7′H-spiro[isoxazole-5,6′-[2,7]methanopyrido[1,2-a][1,4]diazonine]-10′-carboxamide]	159
CC1=NO[C@@]2(CC[C@H](C)N3C[C@H]2n2cc(C(=O)NCc4c(F)cc(F)cc4F)c(=O)c(O)c2C3=O)[C@H]1O [Example 31, (3′S,4S,5R,7′R)-4,12′-dihydroxy-3,3′-dimethyl-1′,11′-dioxo-N-(2,4,6-trifluorobenzyl)-1′,4′,5′,11′-tetrahydro-3′H,4H,7′H-spiro[isoxazole-5,6′-[2,7]methanopyrido[1,2-a][1,4]diazonine]-10′-carboxamide]	157
CC1=NO[C@@]2(CC[C@H](C)N3C[C@H]2n2cc(C(=O)NCc4c(F)cc(F)cc4F)c(=O)c(O)c2C3=O)[C@H]1F [Example 32, (3′S,4S,5R,7′R)-4-fluoro-12′-hydroxy-3,3′-dimethyl-1′,11′-dioxo-N-(2,4,6-trifluorobenzyl)-1′,4′,5′,11′-tetrahydro-3′H,4H,7′H-spiro[isoxazole-5,6′-[2,7]methanopyrido[1,2-a][1,4]diazonine]-10′-carboxamide]	652
CC1=NO[C@@]2(CC[C@H](C)N3C[C@H]2n2cc(C(=O)NCc4c(F)cc(F)cc4F)c(=O)c(O)c2C3=O)[C@@H]1F [Example 33, (3′S,4R,5R,7′R)-4-fluoro-12′-hydroxy-3,3′-dimethyl-1′,11′-dioxo-N-(2,4,6-trifluorobenzyl)-1′,4′,5′,11′-tetrahydro-3′H,4H,7′H-spiro[isoxazole-5,6′-[2,7]methanopyrido[1,2-a][1,4]diazonine]-10′-carboxamide]	854
CC1=NO[C@@]2(CC[C@H](C)N3C[C@H]2n2cc(C(=O)NCc4ccc(F)c(Cl)c4F)c(=O)c(O)c2C3=O)[C@H]1C [Example 34, (3′S,4S,5S,7′R)—N-(3-chloro-2,4-difluorobenzyl)-12′-hydroxy-3,3′,4-trimethyl-1′,11′-dioxo-1′,4′,5′,11′-tetrahydro-3′H,4H,7′H-spiro[isoxazole-5,6′-[2,7]methanopyrido[1,2-a][1,4]diazonine]-10′-carboxamide]	384
CC1=NO[C@@]2(CC[C@H](C)N3C[C@H]2n2cc(C(=O)NCc4ccc(F)c(Cl)c4F)c(=O)c(O)c2C3=O)[C@H]1O [Example 35, (3′S,4S,5R,7′R)—N-(3-chloro-2,4-difluorobenzyl)-4,12′-dihydroxy-3,3′-dimethyl-1′,11′-dioxo-1′,4′,5′,11′-tetrahydro-3′H,4H,7′H-spiro[isoxazole-5,6′-[2,7]methanopyrido[1,2-a][1,4]diazonine]-10′-carboxamide]	340
COC1=NO[C@@]2(CC[C@H](C)N3C[C@H]2n2cc(C(=O)NCc4c(F)cc(F)cc4F)c(=O)c(O)c2C3=O)C1 [Example 36, (3′S,5S,7′R)-12′-hydroxy-3-methoxy-3′-methyl-1′,11′-dioxo-N-(2,4,6-trifluorobenzyl)-1′,4′,5′,11′-tetrahydro-3′H,4H,7′H-spiro[isoxazole-5,6′-[2,7]methanopyrido[1,2-a][1,4]diazonine]-10′-carboxamide]	138
COC1=NO[C@]2(CC[C@H](C)N3C[C@H]2n2cc(C(=O)NCc4c(F)cc(F)cc4F)c(=O)c(O)c2C3=O)C1 [Example 37, (3′S,5R,7′R)-12′-hydroxy-3-methoxy-3′-methyl-1′,11′-dioxo-N-(2,4,6-trifluorobenzyl)-1′,4′,5′,11′-tetrahydro-3′H,4H,7′H-spiro[isoxazole-5,6′-[2,7]methanopyrido[1,2-a][1,4]diazonine]-10′-carboxamide]	12
COCCOC1=NO[C@@]2(CC[C@H](C)N3C[C@H]2n2cc(C(=O)NCc4c(F)cc(F)cc4F)c(=O)c(O)c2C3=O)C1 [Example 38, (3′S,5S,7′R)-12′-hydroxy-3-(2-methoxyethoxy)-3′-methyl-1′,11′-dioxo-N-(2,4,6-trifluorobenzyl)-1′,4′,5′,11′-tetrahydro-3′H,4H,7′H-spiro[isoxazole-5,6′-[2,7]methanopyrido[1,2-a][1,4]diazonine]-10′-carboxamide]	5
